{"source": "patent EP3995502A1", "about": "“4-HYDROXYPHENYL PHOSPHONIUM SALTS WITH ANTI-PARASITIC PROPERTIES” (priority 2019, dated 2021)", "system": "T. brucei B48", "assay": "In vitro trypanocidal activity, drug-resistant strain B48", "format": "cell-based, T. b. brucei", "conditions": "resistance factor (EC50 T. b. B48 / EC50 T. b. s427)"}
{"compound": "O=C(CCCCCCCCCCCCCCC[P+](c1ccccc1)(c1ccccc1)c1ccccc1)c1ccc(O)cc1O", "values": [{"measurement": "RF", "value": 1.27, "unit": "µM"}]}
